Compound potency records, mixed from different reports. Data source: NIAID ChemDB in PubChem.

All rows: target-level tests

Neighbouring rows are from separate reports.

SMILES	changes	endpoint	protein	organism	strain or isolate	dose	read by	result
O=C(c1ccccc1)N1C[C@H](CN2CCC(c3ccccc3)CC2)[C@@H](c2ccccc2)C1	CCR5-D276A	fold resistance	CCR5	-	-	-	radiometric	1.6
CSc1nncc2[nH]cnc12	-	IC50	Phosphoribosyltransferase	Toxoplasma gondii	RH	-	-	>900 µM
C[C@H](N)C(=O)Nc1cccc(S(=O)(=O)NC(=O)Nc2cscc2-c2nc(C(=O)O)c(O)c(=O)[nH]2)c1	-	IC50	HCV polymerase	Hepatitis C virus	-	-	-	<25 µM
Nc1nc2[nH]ccc2c(=O)[nH]1	-	Ki	Phosphoribosyltransferase	Toxoplasma gondii	RH	-	-	26 µM
O=C(Nc1nnc(NCc2cccc3ccccc23)s1)c1c(Cl)cccc1Cl	-	IC50	Polymerase	Human cytomegalovirus	-	-	-	<25 µM
Cn1c2ccccc2c2c3c(c4c5ccccc5n(CCC#N)c4c21)CNC3=O	-	IC50	cGMP-dependent kinase	-	-	-	-	6.2 µM
Cc1nc2cc(Cl)c(Cl)cc2n1[C@@H]1O[C@H](CO)[C@@H](O)[C@H]1O	-	IC50	Protein kinase C	-	-	-	-	>30 µM
O=C1/C(=C\c2ccc3ccccc3c2)SC(=S)N1NS(=O)(=O)c1ccccc1	-	IC50	NS5B polymerase	Hepatitis C virus	-	-	-	≤30 µM
O=P(O)(O)C(Cl)(Cl)P(=O)(O)O	-	IC50	DNA polymerase	Herpes simplex virus 1	-	-	-	>100 µM
Cc1cc(S(=O)(=O)N(Cc2cccc(I)c2)c2cc(-c3ccccc3)sc2C(=O)O)c(C)cc1Cl	-	IC50	NS3 ATPase	Hepatitis C virus	-	-	-	5–20 µM
O=C1/C(=C\c2ccccc2F)SC(=S)N1NS(=O)(=O)c1ccccc1	-	IC50	NS5B polymerase	Hepatitis C virus	-	-	-	≤30 µM
O=P(O)(O)C(F)(Br)P(=O)(O)O	-	IC50	DNA polymerase	Epstein-Barr virus	-	-	-	>100 µM
Ic1ncnc2nc[nH]c12	-	IC50	Phosphoribosyltransferase	Toxoplasma gondii	RH	-	-	>900 µM
CN1Cc2c(c3c4ccccc4n(C)c3c3c2c2ccccc2n3CCC#N)C1=O	-	IC50	Myosin light-chain kinase	-	-	-	-	>10 µM
O=C(CN1C(=O)SC(=Cc2ccc(F)c(F)c2)C1=O)N1CCN(c2ccccc2)CC1	-	IC50	Falcipain-2	Plasmodium falciparum	-	-	fluorescence	>50 µM
CN(Cc1cnc2nc(N)nc(N)c2n1)c1ccc(C(=O)N2CCOCC2)cc1	-	IC50	Dihydrofolate reductase	Cryptosporidium parvum	-	-	-	>10 µM
NC(Cc1ccccc1)B(O)O	-	IC50	Aminopeptidase	Cryptosporidium parvum	-	-	-	<0.001 µM
CCn1cnc2c(N)ncnc21	-	inhibition	Phosphoribosyltransferase	Toxoplasma gondii	RH	900 µM	-	<10%
CO[P@](=O)(c1cc(C)cc(/C=C/C#N)c1)c1c(C(N)=O)[nH]c2ccc(Cl)cc12	L1001	IC50	Reverse transcriptase	HIV	-	-	-	0.13 µM
O=C(Nc1cccc(-c2nc(C(=O)O)c(O)c(=O)[nH]2)c1)c1cc2ccccc2s1	-	IC50	HCV polymerase	Hepatitis C virus	-	-	-	<100 µM
CCCCCC(C(=O)O)P(=O)(O)O	-	IC50	DNA polymerase	Duck hepatitis B virus	-	-	-	>100 µM
COCON1C(=O)/C(=C/c2cccc(F)c2)N(Cc2ccc(OC)cc2)[C@@H](CC(C)C)C1=O	-	IC50	Transcriptase	Influenza A virus	-	-	-	>200 µM
CCC(CC)Nc1cc(C(=O)O)ccc1N1C(=O)CCC1(CO)CN=[N+]=[N-]	-	IC50	Neuraminidase	Influenza B virus	B/LEE	-	-	>670 µM
NC(N)=NCCNS(=O)(=O)c1cccc2cnccc12	-	IC50	Protein kinase C	-	-	-	-	>30 µM
Nc1nc(N)c2c(n1)CCC(Cc1cccc(C(F)(F)F)c1)C2	-	IC50	Dihydrofolate reductase	Cryptosporidium parvum	-	-	-	5.75 µM
O=c1[nH]c(=O)c2n[nH]nc2[nH]1	-	inhibition	Phosphoribosyltransferase	Toxoplasma gondii	RH	900 µM	-	<10%
COc1cc(OC)c(C=C2SC(=O)N(Cc3ccc(C)cc3)C2=O)c(OC)c1	-	IC50	Falcipain-2	Plasmodium falciparum	-	-	fluorescence	43.35 µM
S=c1[nH]c(=S)c2[nH]cnc2[nH]1	-	Ki	Phosphoribosyltransferase	Toxoplasma gondii	RH	-	-	300 µM
O=C(Nc1nnc(NCc2cccs2)s1)c1ccc(I)cc1	-	IC50	Polymerase	Human cytomegalovirus	-	-	-	>25 µM
COCON1C(=O)/C(=C/c2ccc(OC)cc2)N(Cc2ccc(OC)cc2)[C@@H](Cc2ccccc2)C1=O	-	IC50	Transcriptase	Influenza A virus	-	-	-	>200 µM
CC(Br)(C(=O)O)P(=O)(O)O	-	IC50	DNA polymerase	Epstein-Barr virus	-	-	-	>100 µM
OB(O)C1CCCN1	-	inhibition	Aminopeptidase	Cryptosporidium parvum	-	0.001 µM	-	36%
CN1C(=O)/C(=C\c2ccc(Cl)cc2)SC1=S	-	IC50	NS5B polymerase	Hepatitis C virus	-	-	-	>30 µM
Brc1c(Br)c(Br)c2[nH]c(I)nc2c1Br	-	IC50	Protein kinase C	-	-	-	-	>30 µM
CC(=O)Nc1ccc(-c2cc(NS(=O)(=O)c3ccccc3C)c(C(=O)O)s2)cc1	-	IC50	NS3 ATPase	Hepatitis C virus	-	-	-	5–20 µM
O=C(OC[C@H]1O[C@@H](n2cnc3c(=O)[nH]cnc32)[C@H](O)[C@@H]1O)c1ccc(S(=O)(=O)F)cc1	-	inhibition	NTPase/helicase	West Nile virus	-	300 µM	-	14%
CN1CN(C)c2n[nH]nc2C1=O	-	IC50	Phosphoribosyltransferase	Toxoplasma gondii	RH	-	-	>900 µM
CCOc1ccc2ccccc2c1C(=O)Nc1nnc(NCCc2cccs2)s1	-	IC50	Polymerase	Human cytomegalovirus	-	-	-	<25 µM
CC(C)(C)OC(=O)N[C@H](C(=O)Nc1ccsc1-c1nc(C(=O)O)c(O)c(=O)[nH]1)c1ccccc1	-	IC50	HCV polymerase	Hepatitis C virus	-	-	-	<25 µM
Nc1ncnc2[nH]ncc12	-	Ki	Phosphoribosyltransferase	Toxoplasma gondii	RH	-	-	81 µM
CC(Cl)(C(=O)O)P(=O)(O)O	-	inhibition	DNA polymerase	Herpes simplex virus 1	-	100 µM	-	0%
CC(C)C(N)B(O)O	-	inhibition	Aminopeptidase	Cryptosporidium parvum	-	0.001 µM	-	81%
OC[C@H]1O[C@@H](n2c(I)nc3cc(Br)c(Br)cc32)[C@H](O)[C@@H]1O	-	IC50	Protein kinase A	-	-	-	-	>30 µM
O=P(O)(O)C(F)P(=O)(O)O	-	IC50	DNA polymerase	Epstein-Barr virus	-	-	-	>100 µM
CS(=O)(=O)NN1C(=O)/C(=C\c2cc(F)c(F)cc2F)SC1=S	-	IC50	NS5B polymerase	Hepatitis C virus	-	-	-	≤30 µM
CCOc1ccc2ccccc2c1C(=O)Nc1nnc(NCCc2ccccc2)s1	-	IC50	Polymerase	Human cytomegalovirus	-	-	-	>25 µM
CC(=O)N[C@@H](CC(C)C)C(=O)N[C@@H](CC(C)C)C(=O)N[C@H](C=O)CCCN=C(N)N	-	inhibition	Aminopeptidase	Cryptosporidium parvum	-	1000 µM	-	28%
Cc1cc(C)cc(SCc2ccc(-c3nc(C(=O)O)c(O)c(=O)[nH]3)cc2)c1	-	IC50	HCV polymerase	Hepatitis C virus	-	-	-	<100 µM
CN(CC(C)(CCN1CCC(N(CCO)C(=O)OCc2ccc([N+](=O)[O-])cc2)CC1)c1ccsc1)S(=O)(=O)c1ccccc1	CCR5-W86A	IC50	CCR5	-	-	-	radiometric	0.91 µM
O=C(Nc1nnc(NCc2ccc(Cl)c(Cl)c2)s1)c1cccc([N+](=O)[O-])c1	-	IC50	Polymerase	Human cytomegalovirus	-	-	-	>25 µM
O=C(O)C(O)P(=O)(O)O	-	IC50	DNA polymerase	Duck hepatitis B virus	-	-	-	>100 µM
COc1cc(OC)c(C=C2SC(=O)NC2=O)c(OC)c1	-	IC50	Falcipain-2	Plasmodium falciparum	-	-	fluorescence	47.84 µM
Nc1nc(N)c2c(n1)CCC(c1ccccc1)C2	-	IC50	Dihydrofolate reductase	Cryptosporidium parvum	-	-	-	>10 µM
COCON1C(=O)[C@H]([C@@H](O)c2ccccc2F)N(Cc2ccc(OC)cc2)[C@@H](CC(C)C)C1=O	-	IC50	Transcriptase	Influenza A virus	-	-	-	>200 µM
O=C(NCCc1ccccc1Cl)Nc1cscc1-c1nc(C(=O)O)c(O)c(=O)[nH]1	-	IC50	HCV polymerase	Hepatitis C virus	-	-	-	<25 µM
COCON1C(=O)/C(=C/C(C)C)N(Cc2ccc(OC)cc2)[C@@H](CC(C)C)C1=O	-	IC50	Transcriptase	Influenza A virus	-	-	-	>200 µM
O=C(O)C(CCCc1ccccc1)P(=O)(O)O	-	IC50	DNA polymerase	Duck hepatitis B virus	-	-	-	>100 µM
O=C(O)C(Cl)P(=O)(O)O	-	IC50	DNA polymerase	Herpes simplex virus 2	-	-	-	5.4 µM
O=C(Nc1ccsc1-c1nc(C(=O)O)c(O)c(=O)[nH]1)OCCc1ccc(F)cc1O	-	IC50	HCV polymerase	Hepatitis C virus	-	-	-	<25 µM
c1ccc(C2SCc3nc4ccccc4n32)cc1	RT-K103N Y181I Y188L	IC50	Reverse transcriptase	HIV	-	-	-	>50 µM
N#CCCn1c2ccc(O)cc2c2c3c(c4c5cc(O)ccc5[nH]c4c21)C(=O)NC3	-	IC50	cGMP-dependent kinase	-	-	-	-	0.043 µM
Cc1ccc(S(=O)(=O)Nc2cc(-c3ccsc3)sc2C(=O)O)cc1	-	IC50	NS3 ATPase	Hepatitis C virus	-	-	-	5–20 µM
O=C(NCc1nccs1)Nc1cscc1-c1nc(C(=O)O)c(O)c(=O)[nH]1	-	IC50	HCV polymerase	Hepatitis C virus	-	-	-	<25 µM
Clc1nc2cc(Br)c(Br)cc2[nH]1	-	IC50	Protein kinase C	-	-	-	-	>30 µM
Cc1cn([C@@H]2O[C@H](CO[Si](C)(C)C(C)(C)C)[C@@]3(OS(=O)(=O)C=C3N)[C@H]2O[Si](C)(C)C(C)(C)C)c(=O)[nH]c1=O	RT-N137D	fold resistance	Reverse transcriptase	HIV	-	-	nucleotide incorporation / radiometric	0.68
O=C1CC=Cc2[nH]ccc21	-	IC50	Phosphoribosyltransferase	Toxoplasma gondii	RH	-	-	>900 µM
CN(Cc1ccc2nc(N)nc(N)c2n1)c1ccccc1Cl	-	IC50	Dihydrofolate reductase	Cryptosporidium parvum	-	-	-	0.91 µM
Nc1ncnc2c1ncn2[C@@H]1O[C@H](COC(=O)c2ccc(S(=O)(=O)F)cc2)[C@@H](O)[C@H]1O	-	inhibition	NTPase/helicase	Dengue virus	-	300 µM	-	44%
CCCCCCCC(C(=O)O)P(=O)(O)O	-	IC50	DNA polymerase	Duck hepatitis B virus	-	-	-	>100 µM
CC(C)N(C(=O)c1ccc(Cl)cc1Cl)c1c(C(=O)O)sc(-c2ccccc2)c1F	-	IC50	NS3 ATPase	Hepatitis C virus	-	-	-	5–20 µM
O=C(NCc1cccs1)Nc1ccsc1-c1nc(C(=O)O)c(O)c(=O)[nH]1	-	IC50	HCV polymerase	Hepatitis C virus	-	-	-	<25 µM
O=P(O)(O)C(Cl)(Br)P(=O)(O)O	-	IC50	DNA polymerase	Herpes simplex virus 1	-	-	-	>100 µM
O=C1/C(=C\c2ccc(Cl)c(Cl)c2)SC(=S)N1NS(=O)(=O)c1cccc([N+](=O)[O-])c1	-	IC50	NS5B polymerase	Hepatitis C virus	-	-	-	≤30 µM
COCON1C(=O)[C@H]([C@H](O)C(C)C)N(Cc2ccc(OC)cc2)[C@@H](Cc2ccccc2)C1=O	-	IC50	Transcriptase	Influenza A virus	-	-	-	>200 µM
O=C(Nc1cc(Cl)cc(Cl)c1)Nc1cccc(-c2nc(C(=O)O)c(O)c(=O)[nH]2)c1	-	IC50	HCV polymerase	Hepatitis C virus	-	-	-	<100 µM

Again, the opening 7 rows:

SMILES | changes | endpoint | protein | organism | strain or isolate | dose | read by | result
O=C(c1ccccc1)N1C[C@H](CN2CCC(c3ccccc3)CC2)[C@@H](c2ccccc2)C1 | CCR5-D276A | fold resistance | CCR5 | - | - | - | radiometric | 1.6
CSc1nncc2[nH]cnc12 | - | IC50 | Phosphoribosyltransferase | Toxoplasma gondii | RH | - | - | >900 µM
C[C@H](N)C(=O)Nc1cccc(S(=O)(=O)NC(=O)Nc2cscc2-c2nc(C(=O)O)c(O)c(=O)[nH]2)c1 | - | IC50 | HCV polymerase | Hepatitis C virus | - | - | - | <25 µM
Nc1nc2[nH]ccc2c(=O)[nH]1 | - | Ki | Phosphoribosyltransferase | Toxoplasma gondii | RH | - | - | 26 µM
O=C(Nc1nnc(NCc2cccc3ccccc23)s1)c1c(Cl)cccc1Cl | - | IC50 | Polymerase | Human cytomegalovirus | - | - | - | <25 µM
Cn1c2ccccc2c2c3c(c4c5ccccc5n(CCC#N)c4c21)CNC3=O | - | IC50 | cGMP-dependent kinase | - | - | - | - | 6.2 µM
Cc1nc2cc(Cl)c(Cl)cc2n1[C@@H]1O[C@H](CO)[C@@H](O)[C@H]1O | - | IC50 | Protein kinase C | - | - | - | - | >30 µM

Inhibition is in % at the dose shown (toxicity tests: loss of growth or viability). Two numbers with a dash give a range or band. Fold resistance has wild type as its base. An empty or dashed field is not shown. ICn is the concentration giving n% inhibition.